Anti-infective test results gathered from many reports (values: NIAID ChemDB through PubChem).

Common to all: tests in culture; agent: Candida albicans; measure: MIC90

MIC50, MIC90 and the like: level of inhibition, or share of isolates inhibited. Rows are shuffled and stem from different studies.

{"SMILES": "Fc1ccc(COc2ccc(C(c3ccc4ccccc4c3)n3ccnc3)cc2)c(F)c1.O=[N+]([O-])O", "strain or isolate": "16 strains", "value": "≥256 µg/mL"}
{"SMILES": "C[C@@H](c1ncncc1F)[C@](O)(Cn1cncn1)c1ccc(F)cc1F", "strain or isolate": "660 isolates", "value": "0.06 µg/mL"}
{"SMILES": "CC(=O)N1CCN(c2ccc(OC[C@H]3CO[C@](Cn4ccnc4)(c4ccc(-c5ccccc5)cc4)O3)cc2)CC1", "strain or isolate": "44 strains", "value": ">256 µg/mL"}
{"SMILES": "c1ccc(-c2ccc(C(c3ccccc3)n3ccnc3)cc2)cc1", "strain or isolate": "16 strains", "value": "8 µg/mL"}
{"SMILES": "OC[C@H]1CO[C@](Cn2ccnc2)(c2ccc(-c3ccccc3)cc2)O1", "strain or isolate": "44 strains", "value": "128 µg/mL"}
{"SMILES": "CC(N1CCN(c2ccc(-n3cnn(Cc4ccc(C(F)(F)F)cc4)c3=O)cc2)CC1)C(O)(Cn1cncn1)c1ccc(F)cc1F", "strain or isolate": "51 strains (fluconazole-susceptible)", "value": "0.09 µg/mL"}
{"SMILES": "COc1ccc(C(Cc2ccc(Cl)cc2)n2ccnc2)cc1", "strain or isolate": "28 strains", "value": "16 µg/mL"}
{"SMILES": "Clc1ccc(COc2ccc(C(c3cccc4ccccc34)n3ccnc3)cc2)c(Cl)c1.O=[N+]([O-])O", "strain or isolate": "17 strains", "value": "≥256 µg/mL"}
{"SMILES": "CCC(C)n1ncn(-c2ccc(N3CCN(c4ccc(OC[C@H]5CO[C@](Cn6cncn6)(c6ccc(Cl)cc6Cl)O5)cc4)CC3)cc2)c1=O", "strain or isolate": "30 isolates", "value": "1 µg/mL"}
{"SMILES": "c1ccc(C(c2cccc3ccccc23)n2ccnc2)cc1", "strain or isolate": "23 strains", "value": "16 µg/mL"}
{"SMILES": "OC(Cn1cncn1)(Cn1cncn1)c1ccc(F)cc1F", "setting": "48 h", "strain or isolate": "Isolate M27-T-micro", "value": "≥100 µg/mL"}
{"SMILES": "C[C@H]1[C@H](O)[C@@H](C)/C=C/C=C/C=C/C=C/C=C/C=C/C=C/[C@H](O[C@@H]2O[C@H](C)[C@@H](O)[C@H](N)[C@@H]2O)C[C@@H]2O[C@](O)(C[C@@H](O)C[C@@H](O)CC[C@H](O)[C@@H](O)C[C@@H](O)CC(=O)O[C@H]1C)C[C@H](O)[C@H]2C(=O)O", "strain or isolate": "9 isolates fluconazole-resistant", "value": "2 µg/mL"}
{"SMILES": "c1ccc(C(c2ccc3ccccc3c2)n2ccnc2)cc1", "strain or isolate": "23 strains", "value": "16 µg/mL"}
{"SMILES": "CC(C)C(N)CCC(C)C1CC[C@@]2(C)C3=C(CCC12C)C1(C)CC[C@H](O)C(C)(C)C1CC3", "strain or isolate": "A.10231", "value": ">100 µg/mL"}
{"SMILES": "CCC(c1ccc(Cl)cc1)C(c1ccc(OC)cc1)n1cncn1", "strain or isolate": "28 strains", "value": ">256 µg/mL"}
{"SMILES": "OC(Cn1cncn1)(Cn1cncn1)c1ccc(F)cc1F", "strain or isolate": "2453 strains", "value": "0.5 µg/mL"}
{"SMILES": "Clc1cccc(Cl)c1COc1ccc(C(c2cccc3ccccc23)n2ccnc2)cc1.O=[N+]([O-])O", "strain or isolate": "16 strains", "value": "≥256 µg/mL"}
{"SMILES": "CCCCCOc1ccc(-c2ccc(-c3ccc(C(=O)N[C@H]4C[C@@H](O)[C@@H](O)NC(=O)[C@@H]5[C@@H](O)[C@@H](C)CN5C(=O)[C@H]([C@H](C)O)NC(=O)[C@H]([C@H](O)[C@@H](O)c5ccc(O)cc5)NC(=O)[C@@H]5C[C@@H](O)CN5C(=O)[C@H]([C@H](C)O)NC4=O)cc3)cc2)cc1", "strain or isolate": "10 strains (fluconazole-resistant)", "value": "0.25 µg/mL"}
{"SMILES": "CC(N1CCN(c2ccc(-n3cnn(Cc4ccc(OC(F)(F)F)cc4)c3=O)cc2)CC1)C(O)(Cn1cncn1)c1ccc(F)cc1F", "strain or isolate": "6 strains (fluconazole-resistant)", "value": "0.19 µg/mL"}
{"SMILES": "Fc1ccccc1COc1ccc(C(c2ccc3ccccc3c2)n2ccnc2)cc1", "strain or isolate": "17 strains", "value": "256 µg/mL"}
{"SMILES": "Clc1ccc(C(c2ccc3ccccc3c2)n2ccnc2)s1", "strain or isolate": "23 strains", "value": "8 µg/mL"}
{"SMILES": "COc1ccc(CN2C[C@H](OC[C@@]34C[C@@H]5[C@H](C)CC[C@H]5[C@@]5(C=O)C[C@@H]3CC(C(C)C)[C@@]45C(=O)O)O[C@H](C)C2)cc1", "strain or isolate": "16 isolates", "value": "≤0.001 µg/mL"}
{"SMILES": "Cc1ccc(C(c2cccc3ccccc23)n2ccnc2)cc1", "strain or isolate": "23 strains", "value": "32 µg/mL"}
{"SMILES": "CC(=O)OCC1C=C(c2ccc(Cl)c(Cl)c2)C(=O)O1", "strain or isolate": "25 isolates", "value": "4 µg/mL"}
{"SMILES": "C[C@H]1[C@H](O)[C@@H](C)/C=C/C=C/C=C/C=C/C=C/C=C/C=C/[C@H](O[C@@H]2O[C@H](C)[C@@H](O)[C@H](N)[C@@H]2O)C[C@@H]2O[C@](O)(C[C@@H](O)C[C@@H](O)CC[C@H](O)[C@@H](O)C[C@@H](O)CC(=O)O[C@H]1C)C[C@H](O)[C@H]2C(=O)O", "strain or isolate": "Fluconazole-resistant 4 isolates pooled", "value": "0.5 µg/mL"}
{"SMILES": "CC(C)C(CCC(C)C1CCC2C3CC=C4C[C@@H](O)CCC4(C)C3CCC12C)NS(=O)(=O)O", "strain or isolate": "IFO. 1385", "value": "0.78 µg/mL"}
{"SMILES": "COc1ccc(CC(c2ccc(OC)cc2)n2cnnc2)cc1", "strain or isolate": "28 strains", "value": "256 µg/mL"}
{"SMILES": "CCC(C)CC(C)CCCCCCCCC(=O)N[C@H]1C[C@@H](O)[C@@H](OCCN)NC(=O)[C@@H]2[C@@H](O)CCN2C(=O)[C@H]([C@@H](O)CCN)NC(=O)[C@H]([C@H](O)[C@@H](O)c2ccc(O)cc2)NC(=O)[C@@H]2C[C@@H](O)CN2C(=O)[C@H]([C@H](C)O)NC1=O", "strain or isolate": "Fluconazole-susceptible", "value": "0.06 µg/mL"}
{"SMILES": "CC[C@@H](c1ccc(Cl)cc1)[C@@H](c1ccc(OC)cc1)n1cnnc1", "strain or isolate": "28 strains", "value": ">256 µg/mL"}
{"SMILES": "CS(=O)(=O)OC[C@H]1CO[C@](Cn2ccnc2)(c2ccc(-c3ccccc3)cc2)O1", "strain or isolate": "44 strains", "value": ">256 µg/mL"}
{"SMILES": "Clc1ccc(COC(Cn2ccnc2)c2ccc(Cl)cc2Cl)c(Cl)c1", "strain or isolate": "16 strains", "value": "2 µg/mL"}
{"SMILES": "C[C@H]1[C@H](O)[C@@H](C)/C=C/C=C/C=C/C=C/C=C/C=C/C=C/[C@H](O[C@@H]2O[C@H](C)[C@@H](O)[C@H](N)[C@@H]2O)C[C@@H]2O[C@](O)(C[C@@H](O)C[C@@H](O)CC[C@H](O)[C@@H](O)C[C@@H](O)CC(=O)O[C@H]1C)C[C@H](O)[C@H]2C(=O)O", "strain or isolate": "58 strains", "value": "1 µg/mL"}
{"SMILES": "COc1ccc(C(Cc2ccc(Cl)cc2Cl)C(c2ccc(OC)cc2)n2ccnc2)cc1", "strain or isolate": "28 strains", "value": "128 µg/mL"}
{"SMILES": "Clc1ccc(COc2ccc(C(c3ccc4ccccc4c3)n3ccnc3)cc2)cc1.O=[N+]([O-])O", "strain or isolate": "16 strains", "value": "≥256 µg/mL"}
{"SMILES": "C=C(CF)CN1C[C@H](OC[C@@]23C[C@@H]4[C@H](C)CC[C@H]4[C@@]4(C=O)C[C@@H]2CC(C(C)C)[C@@]34C(=O)O)O[C@H](C)C1", "strain or isolate": "16 isolates", "value": "0.008 µg/mL"}
{"SMILES": "CCC(c1ccc(Cl)cc1)C(c1ccc(OC)cc1)n1ccnc1", "strain or isolate": "28 strains", "value": "32 µg/mL"}
{"SMILES": "CCC(C)n1ncn(-c2ccc(N3CCN(c4ccc(OC[C@H]5CO[C@](Cn6cncn6)(c6ccc(Cl)cc6Cl)O5)cc4)CC3)cc2)c1=O", "strain or isolate": "10 isolates azole-resistant", "value": "0.8 µg/mL"}
{"SMILES": "CC(C)C(N)CCC(C)C1CCC2C3CC=C4C[C@@H](O)CCC4(C)C3CCC12C", "strain or isolate": "A11651", "value": "3.13 µg/mL"}
{"SMILES": "CC(=O)N1CCN(c2ccc(OCC3COC(Cn4ccnc4)(c4ccc(-c5ccccc5)cc4)O3)cc2)CC1", "strain or isolate": "44 strains", "value": "128 µg/mL"}
{"SMILES": "CCC(C)n1ncn(-c2ccc(N3CCN(c4ccc(OC[C@H]5CO[C@](Cn6cncn6)(c6ccc(Cl)cc6Cl)O5)cc4)CC3)cc2)c1=O", "strain or isolate": "13 strains (fluconazole-resistant)", "value": ">8 µg/mL"}
{"SMILES": "Clc1ccccc1COc1ccc(C(c2ccc3ccccc3c2)n2ccnc2)cc1.O=[N+]([O-])O", "strain or isolate": "16 strains", "value": "≥256 µg/mL"}
{"SMILES": "C=C=CCN1C[C@H](OC[C@@]23C[C@@H]4[C@H](C)CC[C@H]4[C@@]4(C=O)C[C@@H]2CC(C(C)C)[C@@]34C(=O)O)O[C@H](C)C1", "strain or isolate": "16 isolates", "value": "0.03 µg/mL"}
{"SMILES": "Nc1[nH]c(=O)ncc1F", "strain or isolate": "40 isolates azole-susceptible", "value": "0.64 µg/mL"}
{"SMILES": "CC(C)C(CCC(C)C1CC[C@@]2(C)C3=C(CCC12C)C1(C)CC[C@H](O)C(C)(C)C1CC3)NC1CCCCC1", "strain or isolate": "A.10231", "value": "50 µg/mL"}
{"SMILES": "CCC(C)n1ncn(-c2ccc(N3CCN(c4ccc(OC[C@H]5CO[C@](Cn6cncn6)(c6ccc(Cl)cc6Cl)O5)cc4)CC3)cc2)c1=O", "strain or isolate": "TIMM1768 (azole-susceptible)", "value": "0.0063 µg/mL"}